Compound potency records, mixed from different reports. Data source: NIAID ChemDB in PubChem.

Common to all: target-level tests

ICn: concentration for n% inhibition.

SMILES | tested at | read by | endpoint | mutations | protein | species | value
CC[C@H](C)[C@H](NC(=O)[C@@H]1CCCN1C(=O)[C@@H](O)[C@H](Cc1ccccc1)NC(=O)[C@H](CO)NC(=O)CCc1ccccc1)C(=O)N[C@H](C(N)=O)C(C)C | 5 µM |  | inhibition |  | Protease | HIV-1 | 78.5%
O=c1c(-c2ccn[nH]2)cn2ccn(Cc3cccc(Cl)c3)c(=O)c2c1O |  | ELISA | IC50 |  | Integrase | HIV-1 | 0.01–0.1 µM
COc1ccc(S(=O)(=O)N(C[C@@H](O)[C@H](Cc2ccccc2)NC(=O)O[C@H]2CO[C@H]3OCC[C@H]32)CC(C)(C)CCNC(=O)N(C)C)cc1 |  | fluorescence | Ki |  | Protease | HIV-1 | <0.001 µM
N[C@@H](CO)C(=O)N[C@@H](Cc1ccccc1)[C@@H](O)C(=O)NCC1CCCCC1 | 1000 µM |  | inhibition |  | Protease | HIV-1 | 10.3%
O=C1c2c(O)c(=O)c(-c3nccs3)cn2CCN1CCCc1ccc(Cl)c(F)c1 |  | ELISA | IC50 |  | Integrase | HIV-1 | 0.01–0.1 µM
CC(C)=CCN1Cc2cccc3[nH]c(=S)n(c23)C[C@@H]1C |  | nucleotide incorporation | fold resistance | RT-W266S | Reverse transcriptase | HIV | >185
COc1ccc(S(=O)(=O)N(C[C@@H](O)[C@H](Cc2ccccc2)NC(=O)O[C@@H]2CO[C@@H]3OCC[C@@H]32)CC(C)(C)CCC#N)cc1 |  | fluorescence | Ki |  | Protease | HIV-1 | <0.001 µM
CCCCNC(=O)c1cn2ccn(Cc3cccc(Cl)c3)c(=O)c2c(O)c1=O |  | ELISA | IC50 |  | Integrase | HIV-1 | <0.01 µM
C[C@@H](O)[C@H](NC(=O)COc1cccc2ccccc12)C(=O)N[C@@H](Cc1ccccc1)[C@H](O)C(=O)N1CSC[C@H]1C(=O)NC(C)(C)C | 0.05 µM |  | inhibition |  | Protease | HIV-1 | 45.3%
CN(C)C(=O)NCCCC(C)(C)CN(C[C@@H](O)[C@H](Cc1ccccc1)NC(=O)O[C@H]1CO[C@H]2OCC[C@H]21)S(=O)(=O)c1ccc(N)cc1 |  | fluorescence | Ki |  | Protease | HIV-1 | <0.001 µM
CC(C)(C)NC(=O)[C@H]1Cc2ccccc2CN1C(=O)[C@@H](O)[C@H](Cc1ccccc1)NC(=O)[C@H](CC(N)=O)NC(=O)OCc1ccccc1 |  |  | IC50 |  | Protease | HIV-1 | >0.05 µM
O=c1ncn2ccn(Cc3ccc(Cl)c(Cl)c3)c(=O)c2c1O |  | ELISA | IC50 |  | Integrase | HIV-1 | 0.01–0.1 µM
CC(C)(CCCCNC(=O)c1ccc(F)cc1)CN(C[C@@H](O)[C@H](Cc1ccccc1)NC(=O)O[C@H]1CO[C@H]2OCC[C@H]21)S(=O)(=O)c1ccc2c(c1)OCO2 |  | fluorescence | Ki |  | Protease | HIV-1 | <0.001 µM
CC(C)[C@H](NC(=O)[C@@H](NC(=O)[C@@H]1CCCN1C(=O)[C@@H](O)[C@H](Cc1ccccc1)NC(=O)[C@H](CC(N)=O)NC(=O)CCc1ccccc1)C(C)C)C(N)=O | 5 µM |  | inhibition |  | Protease | HIV-1 | 92.8%
C=CCCOC(=O)NCCCC(C)(C)CN(C[C@@H](O)[C@H](Cc1ccccc1)NC(=O)O[C@H]1CO[C@H]2OCC[C@H]21)S(=O)(=O)c1ccc2c(c1)OCO2 |  | fluorescence | Ki |  | Protease | HIV-1 | <0.001 µM
Nc1ccn([C@@H]2CS[C@H](COP(=O)(O)OP(=O)(O)OP(=O)(O)O)O2)c(=O)n1 |  | radiometric | Ki | RT-K103N | Reverse transcriptase | HIV | 0.123 µM
CNC(=O)NCCCC(C)(C)CN(C[C@@H](O)[C@H](Cc1ccccc1)NC(=O)O[C@H]1CO[C@H]2OCC[C@H]21)S(=O)(=O)c1ccc2c(c1)OCO2 |  | fluorescence | Ki |  | Protease | HIV-1 | <0.001 µM
CC(C)(C)NC(=O)[C@H]1N(C(=O)[C@@H](O)[C@H](Cc2ccccc2)NC(=O)[C@H](CC(N)=O)NC(=O)OCOc2cccc3ccccc23)CSC1(C)C | 0.05 µM |  | inhibition |  | Protease | HIV-1 | 98.4%

Two numbers with a dash give a range or band. An empty or dashed field is not shown. Inhibition is in % at the dose shown (toxicity tests: loss of growth or viability). Lines come from different laboratories, so protocols vary. Fold resistance has wild type as its base.